Data as given in PubChem BioAssay AID1259414 (Drosophila RNAi Screening Center, 2018)
Purpose: 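Fly genes that alter Wolbachia amount inside host cells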 (primary screen). Cell system: Drosophila JW18 cells infected with Wolbachia. Knock-down reagent: long dsRNA against Drosophila genes, 0.25 µg dsRNA per well of a 384-well plate. Time to read-out: 5 days. Challenge: cells persistently infected with Wolbachia before knock-down; no added drug. Read-out: 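Automated imaging of bacterial rRNA staining divided by host cell count, reported as plate-normalised robust z-score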. Reading the numbers: Wolbachia per cell robust z: higher = more Wolbachia per host cell than the plate typical. Call rule: 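Hit when robust z is 1.5 or more, or -1.5 or less, in at least two of three replicates; excludes dsRNAs with several or no targets, genes not expressed in JW18 and well A1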.
The deposit covers about 24,000 reagents; shown is an unselected part of those with a known target gene and a result. Over the whole deposit, about 1,210 (5%) were called active. 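Inactive calls also include excluded dsRNAs with several or no targets, genes unexpressed in JW18, and well A1, regardless of score.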 Unmarked entries are inactive. No sequences are given here.

Target gene	DRSC id	Wolbachia per cell robust z, rep 1	Wolbachia per cell robust z, rep 2	Wolbachia per cell robust z, rep 3
beg	DRSC10923	0.0589	-0.00827	-1.58
Tep1	DRSC03450	-0.731	1.07	-0.175
Tep1	DRSC26163	-2.29	-1.18	-1.5
CG4546	DRSC15593	0.604	0.844	1.06
CG4546	DRSC29584	0.375	0.243	0.181
CG4546	DRSC41612	-0.793	1.11	0.764
Nep2	DRSC12126	0.298	-2.22	0.551
Nep2	DRSC21398	0.258	-0.0762	-1.02
Cec-Psi1	DRSC21956	-0.401	-2.23	-0.406
BobA	DRSC09889	-1.42	-1.32	0.765
BobA	DRSC41502	0.301	-0.397	0.358
Hmgcr	DRSC16704	1.83 (active)	1.37	2.84
Hmgcr	DRSC39105	0.428	0.147	-0.243
CG10801	DRSC17761	0.832	0.911	0.501
CG34289	DRSC38814	-2.63	-0.616	-0.648
UQCR-C1	DRSC15508	0.806 (active)	1.71	2.72
CG18536	DRSC06763	0.306	-0.641	-2.19
Dhc62B	DRSC08655	-2.63	1.01	1.13
CG14861	DRSC14984	-2.02	-2.15	-0.963
Acp63F	DRSC08137	1.34	1.04	-2.32
hts	DRSC28097	1.44	-0.769	-0.471
hts	DRSC38863	0.221	0.595	-0.718
hts	DRSC40689	-0.464	0.993	0.566
CG12520	DRSC09892	-3.06 (active)	-1.32	-2.27
CG33339	DRSC22917	1.39	-3.13	1.36
CG33339	DRSC29651	-0.312	-0.134	0.845
CG7420	DRSC00704	-1.02	0.0261	-0.84
CG7420	DRSC41528	-0.923	0.113	1.02
CG43405	DRSC40521	-0.674	0.48	0.693
CG10910	DRSC06007	-4.2	-2.24	-3.53
CG10910	DRSC29305	-0.684	-2.23	-0.71
Dgp-1	DRSC07400	0.45	1.04	-0.00856
CG30178	DRSC21911	-1.41	-0.243	0.27
ImpE3	DRSC16716	0.262	-1.3	-1.25
betaTub65B	DRSC11393	0.524	0.0688	-0.702
Non1	DRSC05954	0.993	0.114	1.96
CG31883	DRSC02561	0.614	0.407	0.901
CG12464	DRSC06156	-2.49	0.0719	-1.16
Klp54D	DRSC07450	-2.76	-1.44	0.918
CG31249	DRSC16248	0.946	0.455	0.871

Continued; the last 7 above are carried over.
Target gene	DRSC id	Wolbachia per cell robust z, rep 1	Wolbachia per cell robust z, rep 2	Wolbachia per cell robust z, rep 3
ImpE3	DRSC16716	0.262	-1.3	-1.25
betaTub65B	DRSC11393	0.524	0.0688	-0.702
Non1	DRSC05954	0.993	0.114	1.96
CG31883	DRSC02561	0.614	0.407	0.901
CG12464	DRSC06156	-2.49	0.0719	-1.16
Klp54D	DRSC07450	-2.76	-1.44	0.918
CG31249	DRSC16248	0.946	0.455	0.871
Jarid2	DRSC10372	0.263	-5.91	-0.103
sov	DRSC17930	3.77 (active)	3.23	2.6
sov	DRSC24302	0.674	1.11	0.152
CG12301	DRSC09875	0.785	0.303	0.157
Hmg-2	DRSC04554	0.105	1.04	0.204
Hmg-2	DRSC25355	-0.457	0.152	1.46
Rab3	DRSC07523	0.316	-4.87	-0.291
sosie	DRSC14636	-0.557	-0.82	-0.585
sosie	DRSC21382	1.06	0.857	1.19
sosie	DRSC26930	0.507	-0.837	-0.282
CG30486	DRSC06680	0.894	-0.696	0.763
st	DRSC11399	0.0903	0.273	-1.94
st	DRSC28257	-2.01	-0.934	-4.37
Prp18	DRSC16802	1.83 (active)	0.0993	2.55
CG17141	DRSC15178	-4.79 (active)	0.829	-4.38
gukh	DRSC14768	-0.0276	-3.25	-0.393
gukh	DRSC15806	0.474	-0.184	-0.44
gukh	DRSC15944	0.554	-1.25	4.06
mfas	DRSC16997	-3.21	0.373	-2.16
mfas	DRSC28658	0.869	-0.169	0.625
ihog	DRSC03157	-0.146	-6.64	0.212
ihog	DRSC29581	-0.423	-0.75	-0.802
LRP1	DRSC07238	1.29	0.579	0.277
stil	DRSC07699	-1.02	-1.04	-0.0492
Ipp	DRSC16718	-1	0.772	0.574
Ipp	DRSC26058	1.77 (active)	0.405	1.83
CG31848	DRSC01309	-3.42	-1.86	-2.3
Cbl	DRSC10764	0.916	0.322	-0.958
Cbl	DRSC11111	-2.19	1.12	0.643
Cbl	DRSC28169	0.903	0.665	0.288
